The values below come from EPA's ToxValDB 9.5.

This data set relates to Mus musculus. The conditions noted are these: acute; oral; mortality.

As a reminder, the LD50 is the dose expected to kill half of the subjects tested. `CC(C)[C@H]1OC(=O)[C@H](Cc2ccccc2)N(C)C(=O)[C@@H](C(C)C)OC(=O)[C@H](Cc2ccccc2)N(C)C(=O)[C@@H](C(C)C)OC(=O)[C@H](Cc2ccccc2)N(C)C1=O` [Beauvericin] gave an LD50 of 100 mg/kg.
